Measured values: patent US20220089698A1, “ANTIBODIES THAT TARGET HIV GP120 AND METHODS OF USE” (published 2022)

Experiments:
Assay in all cases: cell-based or functional assay
[1] = target: HIV-1 envelope glycoprotein (Env, gp120) of virus VS052 (HIV-1)
[2] = target: HIV-1 envelope glycoprotein (Env, gp120) of virus THRO (HIV-1)
[3] = target: HIV-1 envelope glycoprotein (Env, gp120) of virus 92US727 (HIV-1)
[4] = target: HIV-1 envelope glycoprotein (Env, gp120) of virus 7576 (HIV-1)
[5] = target: HIV-1 envelope glycoprotein (Env, gp120) of virus 7103 (HIV-1)
[6] = target: HIV-1 envelope glycoprotein (Env, gp120) of virus 92HT593 (HIV-1)
[7] = target: HIV-1 envelope glycoprotein (Env, gp120) of virus 1003 (HIV-1)
[8] = target: HIV-1 envelope glycoprotein (Env, gp120) of virus 7141 (HIV-1)
[9] = target: HIV-1 envelope glycoprotein (Env, gp120) of virus 8318 (HIV-1)
[10] = target: HIV-1 envelope glycoprotein (Env, gp120) of virus REJO (HIV-1)
[11] = target: HIV-1 envelope glycoprotein (Env, gp120) of virus 92US712 (HIV-1)
[12] = target: HIV-1 envelope glycoprotein (Env, gp120) of virus VS001 (HIV-1)
[13] = target: HIV-1 envelope glycoprotein (Env, gp120) of virus 8320 (HIV-1)
[14] = target: HIV-1 envelope glycoprotein (Env, gp120) of virus 8117 (HIV-1)
[15] = target: HIV-1 envelope glycoprotein (Env, gp120) of virus 1012 (HIV-1)
[16] = target: HIV-1 envelope glycoprotein (Env, gp120) of virus 8110 (HIV-1)
[17] = target: HIV-1 envelope glycoprotein (Env, gp120) of virus 7051 (HIV-1)
[18] = target: HIV-1 envelope glycoprotein (Env, gp120) of virus 7467 (HIV-1)
[19] = target: HIV-1 envelope glycoprotein (Env, gp120) of virus VS039 (HIV-1)
[20] = target: HIV-1 envelope glycoprotein (Env, gp120) of virus 1413 (HIV-1)
[21] = target: HIV-1 envelope glycoprotein (Env, gp120) of virus VS046 (HIV-1)
[22] = target: HIV-1 envelope glycoprotein (Env, gp120) of virus 7015 (HIV-1)
[23] = target: HIV-1 envelope glycoprotein (Env, gp120) of virus 92US657 (HIV-1)
[24] = target: HIV-1 envelope glycoprotein (Env, gp120) of virus VS026 (HIV-1)
[25] = target: HIV-1 envelope glycoprotein (Env, gp120) of virus 8134 (HIV-1)
[26] = target: HIV-1 envelope glycoprotein (Env, gp120) of virus 8106 (HIV-1)
[27] = target: HIV-1 envelope glycoprotein (Env, gp120) of virus 1489 (HIV-1)
[28] = target: HIV-1 envelope glycoprotein (Env, gp120) of virus VS049 (HIV-1)
[29] = target: HIV-1 envelope glycoprotein (Env, gp120) of virus 302076 (HIV-1)
[30] = target: HIV-1 envelope glycoprotein (Env, gp120) of virus VS042 (HIV-1)
[31] = target: HIV-1 envelope glycoprotein (Env, gp120) of virus 8176 (HIV-1)
[32] = target: HIV-1 envelope glycoprotein (Env, gp120) of virus VS017 (HIV-1)
[33] = target: HIV-1 envelope glycoprotein (Env, gp120) of virus CHO77 (HIV-1)
[34] = target: HIV-1 envelope glycoprotein (Env, gp120) of virus 7595 (HIV-1)
[35] = target: HIV-1 envelope glycoprotein (Env, gp120) of virus VS004 (HIV-1)
[36] = target: HIV-1 envelope glycoprotein (Env, gp120) of virus VS030 (HIV-1)
[37] = target: HIV-1 envelope glycoprotein (Env, gp120) of virus 7552 (HIV-1)
[38] = target: HIV-1 envelope glycoprotein (Env, gp120) of virus VS044 (HIV-1)
[39] = target: HIV-1 envelope glycoprotein (Env, gp120) of virus VS043 (HIV-1)
[40] = target: HIV-1 envelope glycoprotein gp120 of virus CHO77 (HIV-1 subtype B, virus CHO77)
[41] = target: HIV-1 envelope glycoprotein gp120 of virus BaL (HIV-1 BaL (lab adapted strain, subtype …))
[42] = target: HIV-1 envelope glycoprotein gp120 of virus 92US657 (HIV-1 subtype B, isolate 92US657)
[43] = target: HIV-1 envelope glycoprotein gp120 of virus 8320 (HIV-1 subtype B, virus 8320)

B1: Antibody 2.3.1-1 (antibody, human IgG1, kappa)
heavy: QVHLSQSGAAVTKPGASVRVSCEASGYNIRDYFIHWWRQAPGQGLQWVGWINPKTGQPNNPRQFQGRVSLTRHASWDFDTFSFYMDLKAVRSDDTAIYFCARQRSDYWDFDVWGSGTQVTVSSASTKGPSVFPLAPSSKSTSGGTAALGCLVKDYFPEPVTVSWNSGALTSGVHTFPAVLQSSGLYSLSSVVTVPSSSLGTQTYICNVNHKPSNTKVDKKVEPKSCDKTHTCPPCPAPELLAGPDVFLFPPKPKDTLMISRTPEVTCVVVDVSHEDPEVKFNWYVDGVEVHNAKTKPREEQYNSTYRVVSVLTVLHQDWLNGKEYKCKVSNKALPLPEEKTISKAKGQPREPQVYTLPPSREEMTKNQVSLTCLVKGFYPSDIAVEWESNGQPENNYKTTPPVLDSDGSFFLYSKLTVDKSRWQQGNVFSCSVLHEALHSHYTQKSLSLSPGK
light: not shown
[1]
  Virus Neutralization Potency: 0.33 mg/L
[2]
  Virus Neutralization Potency: 3.96 mg/L
[3]
  Virus Neutralization Potency: 2.02 mg/L
[4]
  Virus Neutralization Potency: 0.92 mg/L
[5]
  Virus Neutralization Potency: 0.94 mg/L
[6]
  Virus Neutralization Potency: 0.29 mg/L
[7]
  Virus Neutralization Potency: 1.87 mg/L
[8]
  Virus Neutralization Potency: 1.62 mg/L
[9]
  Virus Neutralization Potency: 0.31 mg/L
[10]
  Virus Neutralization Potency: 0.02 mg/L
[11]
  Virus Neutralization Potency: 0.06 mg/L
[12]
  Virus Neutralization Potency: 0.07 mg/L
[13]
  Virus Neutralization Potency: 2.88 mg/L
[14]
  Virus Neutralization Potency: 2.08 mg/L
[15]
  Virus Neutralization Potency: 1.55 mg/L
[16]
  Virus Neutralization Potency: 3.48 mg/L
[17]
  Virus Neutralization Potency: 0.52 mg/L
[18]
  Virus Neutralization Potency: 0.06 mg/L
[19]
  Virus Neutralization Potency: 0.06 mg/L
[20]
  Virus Neutralization Potency: 5.28 mg/L
[21]
  Virus Neutralization Potency: 0.03 mg/L
[22]
  Virus Neutralization Potency: 0.63 mg/L
[23]
  Virus Neutralization Potency: 0.36 mg/L
[24]
  Virus Neutralization Potency: 0.13 mg/L
[25]
  Virus Neutralization Potency: 2.27 mg/L
[26]
  Virus Neutralization Potency: 3.12 mg/L
[27]
  Virus Neutralization Potency: 0.18 mg/L
[28]
  Virus Neutralization Potency: 4.86 mg/L
[29]
  Virus Neutralization Potency: 0.1 mg/L
[30]
  Virus Neutralization Potency: 1.11 mg/L
[31]
  Virus Neutralization Potency: 0.3 mg/L
[32]
  Virus Neutralization Potency: 0.88 mg/L
[33]
  Virus Neutralization Potency: 0.03 mg/L
[34]
  Virus Neutralization Potency: 8.5 mg/L
[35]
  Virus Neutralization Potency: 1.92 mg/L
[36]
  Virus Neutralization Potency: 6.38 mg/L
[37]
  Virus Neutralization Potency: 20.7 mg/L
[38]
  Virus Neutralization Potency: 0.16 mg/L
[39]
  Virus Neutralization Potency: 0.97 mg/L

B2: Antibody 1.14.15-1 (antibody)
heavy: QVQLLQSGAAVTKPGASVRVSCEASGYNIRDYFMHWVRQAPGQGLQWVGWINPKTGQPNNPRQFQGRVSLTRHASWDFDTFSAYMDLKALRSDDTAVYFCARQRSDYWDFDVWGSGTQVTVSSASTKGPSVFPLAPSSKSTSGGTAALGCLVKDYFPEPVTVSWNSGALTSGVHTFPAVLQSSGLYSLSSVVTVPSSSLGTQTYICNVNHKPSNTKVDKKVEPKSCDKTHTCPPCPAPELLAGPDVFLFPPKPKDTLMISRTPEVTCVVVDVSHEDPEVKFNWYVDGVEVHNAKTKPREEQYNSTYRVVSVLTVLHQDWLNGKEYKCKVSNKALPLPEEKTISKAKGQPREPQVYTLPPSREEMTKNQVSLTCLVKGFYPSDIAVEWESNGQPENNYKTTPPVLDSDGSFFLYSKLTVDKSRWQQGNVFSCSVLHEALHSHYTQKSLSLSPGK
light: not shown
[40]
  Virus Neutralization Potency (IC50): > 20 mg/L
[41]
  Virus Neutralization Potency (IC50): > 20 mg/L
[42]
  Virus Neutralization Potency (IC50): > 20 mg/L
[43]
  Virus Neutralization Potency (IC50): > 20 mg/L

B3: Antibody 1.33.32-1 (antibody, human IgG1, kappa)
heavy: QVQLVQSGAEVKKPGASVRVSCKASGYNIRDYFIHWWRQAPGQGLQWVGWINPKTGQPNNPRQFQGRVTLTRHASWDFDTFSFYMDLKALRSDDTATYFCARQRSDYWDFDVWGSGTQVTVSSASTKGPSVFPLAPSSKSTSGGTAALGCLVKDYFPEPVTVSWNSGALTSGVHTFPAVLQSSGLYSLSSVVTVPSSSLGTQTYICNVNHKPSNTKVDKKVEPKSCDKTHTCPPCPAPELLAGPDVFLFPPKPKDTLMISRTPEVTCVVVDVSHEDPEVKFNWYVDGVEVHNAKTKPREEQYNSTYRVVSVLTVLHQDWLNGKEYKCKVSNKALPLPEEKTISKAKGQPREPQVYTLPPSREEMTKNQVSLTCLVKGFYPSDIAVEWESNGQPENNYKTTPPVLDSDGSFFLYSKLTVDKSRWQQGNVFSCSVLHEALHSHYTQKSLSLSPGK
light: not shown
[40]
  Virus Neutralization Potency (IC50): 0.08 mg/L
[41]
  Virus Neutralization Potency (IC50): 0.09 mg/L
[42]
  Virus Neutralization Potency (IC50): 0.83 mg/L
[43]
  Virus Neutralization Potency (IC50): 0.35 mg/L

B4: Antibody 1.34.32-1 (antibody, human IgG1, kappa)
heavy: QVQLVQSGAEVKKPGASVRVSCKASGYNIRDYFIHWWRQAPGQGLQWVGWINPKTGQPNNPRQFQGRVTLTRHASWDFDTFSFYMDLKALRSDDTAVYFCARQRTDYWDFDVWGSGTQVTVSSASTKGPSVFPLAPSSKSTSGGTAALGCLVKDYFPEPVTVSWNSGALTSGVHTFPAVLQSSGLYSLSSVVTVPSSSLGTQTYICNVNHKPSNTKVDKKVEPKSCDKTHTCPPCPAPELLAGPDVFLFPPKPKDTLMISRTPEVTCVVVDVSHEDPEVKFNWYVDGVEVHNAKTKPREEQYNSTYRVVSVLTVLHQDWLNGKEYKCKVSNKALPLPEEKTISKAKGQPREPQVYTLPPSREEMTKNQVSLTCLVKGFYPSDIAVEWESNGQPENNYKTTPPVLDSDGSFFLYSKLTVDKSRWQQGNVFSCSVLHEALHSHYTQKSLSLSPGK
light: not shown
[40]
  Virus Neutralization Potency (IC50): 0.11 mg/L
[41]
  Virus Neutralization Potency (IC50): 0.31 mg/L
[42]
  Virus Neutralization Potency (IC50): 1.47 mg/L
[43]
  Virus Neutralization Potency (IC50): 0.54 mg/L

B5: Antibody 1.36.36-1 (antibody, human IgG1, kappa)
heavy: QVQLVQSGAEVKKPGASVRVSCKASGYNIRDYFMHWWRQAPGQGLQWVGWINPKTGQPNNPRQFQGRVTMTRHASWDFDTFSAYMDLSRLRSDDTATYFCARQRTDYWDFDVWGQGTMVTVSSASTKGPSVFPLAPSSKSTSGGTAALGCLVKDYFPEPVTVSWNSGALTSGVHTFPAVLQSSGLYSLSSVVTVPSSSLGTQTYICNVNHKPSNTKVDKKVEPKSCDKTHTCPPCPAPELLAGPDVFLFPPKPKDTLMISRTPEVTCVVVDVSHEDPEVKFNWYVDGVEVHNAKTKPREEQYNSTYRVVSVLTVLHQDWLNGKEYKCKVSNKALPLPEEKTISKAKGQPREPQVYTLPPSREEMTKNQVSLTCLVKGFYPSDIAVEWESNGQPENNYKTTPPVLDSDGSFFLYSKLTVDKSRWQQGNVFSCSVLHEALHSHYTQKSLSLSPGK
light: not shown
[40]
  Virus Neutralization Potency (IC50): 0.3 mg/L
[41]
  Virus Neutralization Potency (IC50): > 20 mg/L
[42]
  Virus Neutralization Potency (IC50): 2.07 mg/L
[43]
  Virus Neutralization Potency (IC50): 3.84 mg/L
